Results as given in patent US7273885B2, “Inhibitors of serine proteases, particularly HCV NS3-NS4A protease” (Vertex Pharmaceuticals Incorporated, priority 2002, dated 2007).

By UniProt entry, the sequences of proteins in these tests, tags left out. Residues count along the entry.
UniProt P27958, 1027-1208 limits assumed: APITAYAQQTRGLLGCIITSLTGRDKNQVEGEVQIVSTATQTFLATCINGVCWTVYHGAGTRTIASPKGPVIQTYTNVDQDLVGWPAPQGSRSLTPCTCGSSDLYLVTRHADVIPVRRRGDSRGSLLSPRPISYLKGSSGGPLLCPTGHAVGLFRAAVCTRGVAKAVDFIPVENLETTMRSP

Columns and labels:
[1] = target: HCV NS3-NS4A protease (tNS3 with KK4A) (Hepatitis C virus genotype 1a, UniProt P27958); assay: HCV Ki assay (HPLC microbore separation of 5AB substrate and products); type: biochemical; settings: 25 nM tNS3, 25 μM KK4A, 25 μM 5AB substrate, 20 min at 30 C
Protocol: HPLC Microbore Method for Separation of 5AB Substrate and Products
• Substrate: • NH2-Glu-Asp-Val-Val-(alpha)Abu-Cys-Ser-Met-Ser-Tyr-COOH
A stock solution of 20 mM 5AB (or concentration of your choice) was made in DMSO w/ 0.2M DTT. This was stored in aliquots at −20 C.
Buffer: 50 mM HEPES, pH 7.8; 20% glycerol; 100 mM NaCl
Total assay volume was 100 μL
The buffer, KK4A, DTT, and tNS3 were combined; distributed 78 μL each into wells of 96 well plate. This was incubated at 30 C for ˜5–10 min.
2.5 μL of appropriate concentration of test compound was dissolved in DMSO (DMSO only for control) and added to each well. This was incubated at room temperature for 15 min.
Initiated reaction by addition of 20 μL of 250 μM 5AB substrate (25 μM concentration is equivalent or slightly lower than the Km for 5AB).
Incubated for 20 min at 30 C.
Terminated reaction by addition of 25 μL of 10% TFA
Transferred 120 μL aliquots to HPLC vials
Separated SMSY product from substrate and KK4A by the following method:
Microbore Separation Method:
Instrumentation: Agilent 1100
• Degasser G1322A • Binary pump G1312A • Autosampler G1313A • Column thermostated chamber G1316A • Diode array detector G1315A Column:
Phenomenex Jupiter; 5 micron C18; 300 angstroms; 150×2 mm; P/O 00F-4053-B0 • Column thermostat: 40 C • Injection volume: 100 μL • Solvent A=HPLC grade water+0.1% TFA • Solvent B=HPLC grade acetonitrile+0.1% TFA […]

[2] = test system: Cells containing hepatitis C virus (HCV) replicon; assay: HCV replicon cell assay (Taqman RT-PCR of HCV RNA); type: cell-based; settings: 50% inhibition of HCV RNA level, 48-hour incubation
Protocol: HCV Replicon Cell Assay Protocol
Cells containing hepatitis C virus (HCV) replicon were maintained in DMEM containing 10% fetal bovine serum (FBS), 0.25 mg per ml of G418, with appropriate supplements (media A).
On day 1, replicon cell monolayer was treated with a trypsin:EDTA mixture, removed, and then media A was diluted into a final concentration of 100,000 cells per ml wit. 10,000 cells in 100 ul were plated into each well of a 96-well tissue culture plate, and cultured overnight in a tissue culture incubator at 37° C.
On day 2, compounds (in 100% DMSO) were serially diluted into DMEM containing 2% FBS, 0.5% DMSO, with appropriate supplements (media B). The final concentration of DMSO was maintained at 0.5% throughout the dilution series.
Media on the replicon cell monolayer was removed, and then media B containing various concentrations of compounds was added. […]
A Taqman real-time RT-PCR quantification assay was set up with two sets of specific primers and probe. […] Total RNA extractants from treated HCV replicon cells was added to the PCR reactions for quantification of both HCV and BVDV RNA in the same PCR well. […] The level of HCV RNA in each well was calculated according to a standard curve run in the same PCR plate. The percentage of inhibition or decrease of HCV RNA level due to compound treatment was calculated using the DMSO or no compound control as 0% of inhibition. […]

CCC[C@H](NC(=O)[C@@H]1C[C@@H](Oc2ncnc3ccccc23)CN1C(=O)[C@@H](NC(=O)[C@@H](NC(=O)c1[nH]c(C)c(C)c1C(C)=O)C1CCCCC1)C(C)(C)C)C(=O)C(=O)NC1CC1
Ki [1]: < 500 nM
IC50 [2]: < 500 nM
